The target in data set [1] is T1, TBP-WRA (Trypanosoma brucei) (UniProt Q0PW89).
T1 sequence (looked up, limits assumed): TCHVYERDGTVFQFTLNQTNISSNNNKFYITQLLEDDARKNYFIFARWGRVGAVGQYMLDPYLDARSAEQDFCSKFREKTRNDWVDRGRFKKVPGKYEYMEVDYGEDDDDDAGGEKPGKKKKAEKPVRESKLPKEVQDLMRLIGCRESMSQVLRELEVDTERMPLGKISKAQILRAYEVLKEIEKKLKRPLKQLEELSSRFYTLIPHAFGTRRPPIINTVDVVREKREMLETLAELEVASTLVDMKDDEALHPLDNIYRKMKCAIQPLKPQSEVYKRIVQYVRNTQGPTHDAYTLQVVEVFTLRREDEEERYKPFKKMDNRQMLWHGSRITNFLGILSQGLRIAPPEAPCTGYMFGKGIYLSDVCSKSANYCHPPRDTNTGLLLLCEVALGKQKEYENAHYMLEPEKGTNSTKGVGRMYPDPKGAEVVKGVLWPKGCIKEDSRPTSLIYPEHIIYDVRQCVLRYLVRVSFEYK
Description: fluorescence polarization. Conditions: affinity drops substantially; FP: 10 mM HEPES pH 8, 0.1 mM TCEP, 0.1 mM EDTA, 175 mM NaCl, 25 C, 5 nM DNA (250 nM for stoichiometry); recombinant protein; protein details: 6xHis-thioredoxin tag removed with TEV; label: 5' FAM on strand 1. For orientation: Polarisation of emitted light reports the rotation of a fluorescent probe.

Data set [2] concerns the target T2, TBP-N (Trypanosoma brucei) (UniProt Q0PW89).
T2 sequence (looked up, limits assumed): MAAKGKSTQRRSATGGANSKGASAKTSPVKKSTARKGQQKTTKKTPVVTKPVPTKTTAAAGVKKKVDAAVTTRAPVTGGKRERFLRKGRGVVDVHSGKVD
Description: fluorescence polarization. The conditions noted are these: affinity essentially as TBP-FL, no clear stoichiometry; FP: 10 mM HEPES pH 8, 0.1 mM TCEP, 0.1 mM EDTA, 175 mM NaCl, 25 C, 5 nM DNA (250 nM for stoichiometry); recombinant protein; protein details: 6xHis tag removed with TEV; label: 5' FAM on strand 1.

Data set [3] concerns the target T3, TBP-NW (Trypanosoma brucei) (UniProt Q0PW89).
T3 sequence (looked up, limits assumed): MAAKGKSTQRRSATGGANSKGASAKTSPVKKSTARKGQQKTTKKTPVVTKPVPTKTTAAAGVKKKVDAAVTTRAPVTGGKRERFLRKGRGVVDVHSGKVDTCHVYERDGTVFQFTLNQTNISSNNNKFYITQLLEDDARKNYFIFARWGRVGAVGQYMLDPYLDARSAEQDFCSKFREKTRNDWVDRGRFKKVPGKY
Description: fluorescence polarization. The conditions noted are these: affinity essentially as TBP-FL, no clear stoichiometry; FP: 10 mM HEPES pH 8, 0.1 mM TCEP, 0.1 mM EDTA, 175 mM NaCl, 25 C, 5 nM DNA (250 nM for stoichiometry); recombinant protein; protein details: 6xHis-thioredoxin tag removed with TEV; label: 5' FAM on strand 1.

Data set [4] addresses T4, TBP-RA (Trypanosoma brucei) (UniProt Q0PW89).
T4 sequence (looked up, limits assumed): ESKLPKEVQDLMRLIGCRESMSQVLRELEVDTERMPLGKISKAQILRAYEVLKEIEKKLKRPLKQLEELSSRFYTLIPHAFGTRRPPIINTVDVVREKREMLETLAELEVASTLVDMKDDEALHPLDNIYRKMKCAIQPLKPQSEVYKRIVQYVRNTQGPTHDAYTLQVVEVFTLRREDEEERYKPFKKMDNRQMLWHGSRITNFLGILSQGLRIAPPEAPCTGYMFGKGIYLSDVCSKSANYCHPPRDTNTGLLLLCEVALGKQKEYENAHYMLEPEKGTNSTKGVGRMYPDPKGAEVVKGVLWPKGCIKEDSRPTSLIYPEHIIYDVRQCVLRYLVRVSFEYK
Description: fluorescence polarization. The conditions noted are these: FP: 10 mM HEPES pH 8, 0.1 mM TCEP, 0.1 mM EDTA, 175 mM NaCl, 25 C, 5 nM DNA (250 nM for stoichiometry); recombinant protein; protein details: 6xHis tag removed with TEV; label: 5' FAM on strand 1.

The target in data set [5] is T1, TBP-WRA (Trypanosoma brucei). Description: EMSA. Conditions: EMSA: 50 mM Tris pH 7, 0.1 mM TCEP, 0.1 mM EDTA, 5% glycerol, 100 mM NaCl, room temperature, 0.5 uM DNA; recombinant protein; protein details: 6xHis-thioredoxin tag removed with TEV. (In general: A gel shift assay detects complexes by their altered migration in electrophoresis.)
Data set [6] has as its target T4, TBP-RA (Trypanosoma brucei). Description: EMSA. Conditions: almost completely abolished; EMSA: 50 mM Tris pH 7, 0.1 mM TCEP, 0.1 mM EDTA, 5% glycerol, 100 mM NaCl, room temperature, 0.5 uM DNA; recombinant protein; protein details: 6xHis tag removed with TEV.

Construct, isoform or probe ends are uncertain for at least one entry. For part of these data: Negatives hold for the conditions tested. For part of these data: At least one verdict was read from the data and is not stated in words by the source. Where a protein sequence is shown, tags need not be part of it. For part of these data: The comparison behind a weaker result is the experiment's own reference, which may not be listed here.

As to “CAGCAGGTACCTGCCCGGCGCCCAGAGAGGAATGCAACACTC (double strand) [template 20]”, the binding result was “binds more weakly” in data set [1], “binds” in data set [2], “binds” in data set [3] and “no binding” in data set [4].

As to “CCAGGACCAGGGCGCAGATCACCTTGTTCTCCA (double strand) [template 1]”, the binding result in data set [5] and in data set [6] was “binds more weakly” in each case.

The values are drawn from article PMC5473844, “Structural and Biochemical Characterization of Poly-ADP-ribose Polymerase from Trypanosoma brucei”.
